In assay [1] the target is T1, SARS CoV-2 PLpro (Severe acute respiratory syndrome coronavirus 2 (2019-nCoV) (SARS-CoV-2), UniProt P0DTD1). As to conditions: read-out: FRET Enzymatic assay IC50.
Assay [2] addresses T1, SARS CoV-2 PLpro. As to conditions: read-out: FlipGFP-PLpro assay EC50.
For assay [3], the system named is SARS-CoV-2, Isolate USA-WA1/2020. Briefly: microbe, parasite or virus in culture. As to conditions: Severe acute respiratory syndrome coronavirus 2, Vero C1008, read-out: EC50 against infectious SARS-CoV-2 (plaque formation).

Bounds are passed on as bounds.

Data on three compounds can be found in US20240166598A1, “COMPOUNDS, COMPOSITIONS, AND METHODS OF USING THE SAME” (priority 2021, published 2024).

As for “5-(azetidin-3-yloxy)-N- ((R)-1-(3-(5-((((1S,3R)-3- hydroxycyclopentyl)amino) methyl)furan-2- yl)phenyl)ethyl)-2- methylbenzamide [Example 174]”, the IC50 in assay [1] worked out at 600 nM. Further, the EC50 in assay [2] was greater than 60000 nM.
With “(R)-5-(azetidin-3-yloxy)- N-(1-(3-(5- ((cyclopentylamino)methyl) thiazol-2- yl)phenyl)ethyl)-2- methylbenzamide [Example 176]”, the IC50 in assay [1] was found to be 800 nM. Further, in assay [2], the concentration for a half-maximal effect (EC50) is greater than 60000 nM.
Regarding `Cc1ccc(NC2CNC2)cc1C(=O)N[C@H](C)c1cccc(-c2ccc(CNC3CCCC3)s2)c1` [XR8-23], in assay [3], the EC50 amounted to 2800 ± 400 nM.

For orientation: IC50 means the point on the concentration scale where inhibition reaches its midpoint. Usually EC50 stands for the concentration that produces a half-maximal response.
